Here are results for one compound from ChEMBL document CHEMBL1770114, “Triamino pyrimidines and pyridines as histamine H(4) receptor modulators” (Bioorg Med Chem Lett, 2011).

The chains behind the UniProt entries cited, without tags or fusion partners. Where a name states a change or a piece, a line headed by the entry shows the natural chain unless it says otherwise.
UniProt Q9H3N8: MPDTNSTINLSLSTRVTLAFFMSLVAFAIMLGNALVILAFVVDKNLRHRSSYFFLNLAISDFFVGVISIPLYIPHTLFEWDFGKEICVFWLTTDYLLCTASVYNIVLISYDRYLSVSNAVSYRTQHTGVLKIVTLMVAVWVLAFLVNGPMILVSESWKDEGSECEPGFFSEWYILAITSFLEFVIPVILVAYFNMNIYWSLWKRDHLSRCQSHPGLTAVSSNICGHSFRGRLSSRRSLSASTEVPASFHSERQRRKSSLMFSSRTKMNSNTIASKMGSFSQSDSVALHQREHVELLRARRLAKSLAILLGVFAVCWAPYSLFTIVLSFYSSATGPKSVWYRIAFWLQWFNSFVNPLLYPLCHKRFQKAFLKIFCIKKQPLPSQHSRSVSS

The target of assay [1] is T1, Histamine H4 receptor (Homo sapiens, UniProt Q9H3N8). The assay can be described thus: Displacement of [3H]histamine from human histamine H4 receptor.
The target in assay [2] is T1, Histamine H4 receptor. The assay can be described thus: Agonist activity at human histamine H4 receptor expressed in human SK-N-MC cells assessed as effect on forskolin-induced cAMP accumulation after 6 hrs. Type of assay: functional, cell-based. In a few lines: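 SK-N-MC cells with CRE-driven β-galactosidase reporter. Compound added to medium for 10 min at room temperature, then forskolin (5 µM final), 6 h at 37 °C. Chlorophenol red β-D-galactopyranoside substrate read at A570. α set against histamine (full agonist) = 1.0.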

For assay [3], the target named is T1, Histamine H4 receptor. In words: Antagonist activity at human histamine H4 receptor expressed in human SK-N-MC cells assessed as inhibition of forskolin-stimulated cAMP accumulation after 6 hrs. Type of assay: functional, cell-based. The note with it: read-out: pA2 (converted). In a few lines: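 pA2 format on SK-N-MC cells carrying a CRE-controlled β-galactosidase reporter. Cells were preincubated with compound for 10 min, then with histamine agonist for 10 min, then forskolin was added, followed by 6 h at 37 °C. Lysis used phosphate/Mg/Mn buffer at pH 8 with Triton X-100 and β-mercaptoethanol. Chlorophenol red β-D-galactopyranoside turnover was read at 570 nm.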

The structures appear in SMILES notation.

Take `CN[C@@H]1CCN(c2cc(NCC(C)C)nc(N)n2)C1`: in assay [1], the affinity, expressed as Ki, was 4 nM. The EC50 in assay [2] was more than 10 µM. In assay [3], the Kb was 0.501 nM.
